Share of PSTVd loop 6 variants by leaf site

PSTVd intermediate strain, loop 6: wild type UGACCGCGAG, pool pattern UNNNCGNNNG; upper and lower strand joined, each 5' to 3', the first 5 letters being the upper strand, closing pairs included.

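A pool of all variants was put on leaves of three Nicotiana benthamiana plants. Samples came from the inoculated region at 5 days, the leaf margin at 10 and upper systemic leaves at 12.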

Values are reads per thousand in the sample; higher means more abundant, 0 means not found. Each site shows the three plants. "Pool" is the share in the plasmid pool used as inoculum, on the same scale. The inoculated region was read from the minus strand, the other sites from the plus strand. The authors trace changes outside the varied positions to PCR and sequencing errors or to mutation in the plant; presence does not show that a variant is infectious alone.

| sequence | pool | inoculated region | leaf margin | systemic leaves |
|---|---|---|---|---|
| UCUGCGGUUG | 0.353 | 0.139 0.180 0.0369 | 0 0 0 | 0 0 0 |
| UCUGCGUAAG | 0.118 | 0.0695 0.0539 0.0184 | 0 0 0 | 0 0 0 |
| UCUGCGUACG | 0.366 | 0.0695 0.0539 0.148 | 0 0 0 | 0 0 0 |
| UCUGCGUAGG | 0.471 | 0.0869 0.108 0.0369 | 0 0 0.0232 | 0 0 0 |
| UCUGCGUAUG | 0.327 | 0.139 0.0898 0.0369 | 0.414 0 0 | 0 0 0 |
| UCUGCGUCAG | 0.275 | 0.0521 0.0898 0.111 | 0 0 0.0232 | 0 0 0 |
| UCUGCGUCCG | 0.261 | 0.122 0.0539 0.0553 | 0 0 0 | 0 0 0 |
| UCUGCGUCGG | 0.340 | 0.0695 0.0719 0.111 | 0 0 0.0232 | 0 0 0 |
| UCUGCGUCUG | 0.261 | 0.139 0.0539 0.0369 | 0 0 0 | 0 0 0 |
| UCUGCGUGAG | 0.340 | 0.139 0.0898 0.0922 | 0.0276 0 0.0232 | 0 0 0 |
| UCUGCGUGCG | 0.222 | 0.122 0.0898 0.111 | 0 0 0 | 0 0 0 |
| UCUGCGUGGG | 0.157 | 0.104 0.126 0.0553 | 0 0 0 | 0 0 0 |
| UCUGCGUGUG | 0.261 | 0.122 0.0539 0.0922 | 0 0 0 | 0 0 0 |
| UCUGCGUUAG | 0.379 | 0.0348 0.0898 0.148 | 0.0276 0 0.0696 | 0 0 0 |
| UCUGCGUUCG | 0.379 | 0.104 0.0719 0.0553 | 0 0 0.0232 | 0 0 0 |
| UCUGCGUUGG | 0.418 | 0.156 0.0359 0.0553 | 0 0 0 | 0 0 0 |
| UCUGCGUUUG | 0.275 | 0.0869 0.0898 0.111 | 0.0276 0 0 | 0 0 0 |
| UCUUCACGAG | 0.0131 | 0.0174 0 0.0184 | 0 0.101 0 | 0 0 0 |
| UCUUCGAAAG | 0.314 | 0.243 0.144 0.129 | 0.0276 0.0504 0 | 0 0 0 |
| UCUUCGAACG | 0.340 | 0.122 0.144 0.0553 | 0 0 0 | 0 0 0 |
| UCUUCGAAGG | 0.222 | 0.104 0.0539 0.0738 | 0 0 0 | 0 0 0 |
| UCUUCGAAUG | 0.327 | 0.261 0.0539 0.129 | 0 0 0.0464 | 0 0 0 |
| UCUUCGACAG | 0.235 | 0.0695 0.0719 0.111 | 0 0 0 | 0 0 0 |
| UCUUCGACCG | 0.196 | 0.174 0.0180 0.0184 | 0.0276 0 0 | 0 0 0 |
| UCUUCGACGG | 0.248 | 0.0348 0.0359 0.0553 | 0 0 0.0232 | 0 0 0 |
| UCUUCGACUG | 0.458 | 0.156 0.0719 0.166 | 0 0 0 | 0 0 0 |
| UCUUCGAGAG | 0.209 | 0.0869 0.126 0.0738 | 0.0276 0.530 0 | 0 0 0 |
| UCUUCGAGCG | 0.275 | 0.0695 0.0719 0.0553 | 0 0.0252 0 | 0 0 0 |
| UCUUCGAGGG | 0.196 | 0.0695 0.0898 0.129 | 0.0276 0.0252 0.0232 | 0 0 0 |
| UCUUCGAGUG | 0.288 | 0.243 0.0539 0.184 | 0.0276 0 0.0232 | 0 0 0 |
| UCUUCGAUAG | 0.366 | 0.0695 0.0359 0.111 | 0 0 0.255 | 0 0 0 |
| UCUUCGAUCG | 0.327 | 0.0869 0.144 0.0738 | 0 0 0.0232 | 0 0 0 |
| UCUUCGAUGG | 0.314 | 0.122 0.108 0.129 | 0 0.252 0.0232 | 0 0 0 |
| UCUUCGAUUG | 0.392 | 0.209 0.0359 0.0553 | 0 0 0.0232 | 0 0 0 |
| UCUUCGCAAG | 0.261 | 0.156 0.126 0.111 | 0 0 0.0232 | 0 0 0 |
| UCUUCGCACG | 0.170 | 0.0869 0.126 0.0369 | 0 0 0 | 0 0 0 |
| UCUUCGCAGG | 0.235 | 0.226 0.0898 0.0738 | 0 0.0504 0 | 0 0 0 |
| UCUUCGCAUG | 0.183 | 0.104 0.198 0.166 | 0 0 0 | 0 0 0 |
| UCUUCGCCAG | 0.275 | 0.0869 0.126 0.166 | 0 0 0.0232 | 0 0 0 |
| UCUUCGCCCG | 0.275 | 0.139 0.126 0.0922 | 0 0 0 | 0 0 0 |
| UCUUCGCCGG | 0.261 | 0.104 0.108 0.0922 | 0 0 0.0232 | 0 0 0 |
| UCUUCGCCUG | 0.209 | 0.139 0.198 0.111 | 0 1.31 0.0696 | 0 0 0.0205 |
| UCUUCGCGAG | 0.340 | 0.452 0.629 0.479 | 0.248 1.61 0.348 | 0 0 0.164 |
| UCUUCGCGCG | 0.183 | 0.104 0.0539 0.148 | 0 0 0 | 0 0 0 |
| UCUUCGCGGG | 0.471 | 0.104 0.0539 0.0738 | 0 0 0.0232 | 0 0 0 |
| UCUUCGCGUG | 0.144 | 0.191 0.126 0.0738 | 0.0276 0.757 0.0232 | 0 0 0 |
| UCUUCGCUAG | 0.209 | 0.104 0.0719 0.0922 | 0 0.0252 0 | 0 0 0 |
| UCUUCGCUCG | 0.183 | 0.139 0.0898 0.0738 | 0 0 0.0232 | 0 0 0 |
| UCUUCGCUGG | 0.196 | 0.191 0.108 0.0553 | 0 0 0 | 0 0 0 |
| UCUUCGCUUG | 0.405 | 0.0695 0.108 0.0738 | 0 0.0252 0 | 0 0 0 |
| UCUUCGGAAG | 0.209 | 0.122 0.0359 0.129 | 0.0276 0 0.0232 | 0 0 0 |
| UCUUCGGACG | 0.235 | 0.0174 0.162 0.0553 | 0 0.0504 0 | 0 0 0 |
| UCUUCGGAGG | 0.288 | 0.156 0.0898 0.129 | 0 0 0 | 0 0 0 |

A selection of 3 entries from above:

{"sequence": "UCUUCGCAUG", "pool": "0.183", "inoculated region": "0.104 0.198 0.166", "leaf margin": "0 0 0", "systemic leaves": "0 0 0"}
{"sequence": "UCUUCGCUUG", "pool": "0.405", "inoculated region": "0.0695 0.108 0.0738", "leaf margin": "0 0.0252 0", "systemic leaves": "0 0 0"}
{"sequence": "UCUUCGAGGG", "pool": "0.196", "inoculated region": "0.0695 0.0898 0.129", "leaf margin": "0.0276 0.0252 0.0232", "systemic leaves": "0 0 0"}

Samples held 36,220 to 57,551 reads, so the smallest values rest on one or two reads. Wild type was 20.7 per thousand in the pool and the most common sequence in every sample (inoculated region 195, 198, 203; leaf margin 629, 591, 734; systemic leaves 942, 870, 868).

Values reported by Wu et al. 2024 (doi:10.1371/journal.ppat.1012142).